{
  "source": "paper PMC5247677",
  "about": "(Scientific Reports, 2017)",
  "origin": "cited, not measured here",
  "test_system": "NaV isoforms",
  "details": "cited from earlier work",
  "data": [
    {"molecule": "Nc1[nH]ncc1-c1cc(Cl)ccc1Oc1cc(F)c(S(=O)(=O)Nc2cscn2)cc1Cl", "note": "[PF-05089771]", "values": [
      {"measurement": "selectivity for NaV1.7", "result": "at least 10 fold"}
    ]},
    {"molecule": "Cn1nccc1-c1ccccc1Oc1ccc(S(=O)(=O)Nc2nccs2)cc1C#N", "note": "[PF-04856264]", "values": [
      {"measurement": "selectivity for NaV1.7 (slow inactivated state)", "result": "at least 65 fold"}
    ]},
    {"molecule": "ProTx-II: NaV1.7 selective spider peptide from the venom of Thrixopelma pruriens", "values": [
      {"measurement": "selectivity for NaV1.7 over NaV1.2–NaV1.8", "result": "at least 85 fold"}
    ]}
  ]
}
